Laboratory results: US20090060866A1, “PHOSPHADIAZINE HCV […] AND II” (published 2009)

Protein sequences, listed by entry. Tags and fused reporters are not part of them. Residues count along the entry.
UniProt O92972, 2420-3010 limits assumed: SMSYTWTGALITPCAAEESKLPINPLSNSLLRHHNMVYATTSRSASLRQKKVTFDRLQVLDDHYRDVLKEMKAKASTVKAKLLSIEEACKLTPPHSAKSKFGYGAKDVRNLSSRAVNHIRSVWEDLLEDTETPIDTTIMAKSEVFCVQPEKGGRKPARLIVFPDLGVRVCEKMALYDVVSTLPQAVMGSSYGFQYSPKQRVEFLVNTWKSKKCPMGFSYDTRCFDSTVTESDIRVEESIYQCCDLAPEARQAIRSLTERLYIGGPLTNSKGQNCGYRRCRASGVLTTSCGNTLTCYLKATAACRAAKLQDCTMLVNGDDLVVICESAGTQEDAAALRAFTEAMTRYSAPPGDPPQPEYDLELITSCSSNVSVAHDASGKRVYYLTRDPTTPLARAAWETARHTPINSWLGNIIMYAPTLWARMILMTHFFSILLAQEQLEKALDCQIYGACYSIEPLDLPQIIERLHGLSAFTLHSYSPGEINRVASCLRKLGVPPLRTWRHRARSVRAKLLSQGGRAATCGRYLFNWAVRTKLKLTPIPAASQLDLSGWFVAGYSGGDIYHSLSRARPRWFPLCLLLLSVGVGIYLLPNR

How the values were obtained:
[1] = target: HCV genotype 1b polymerase (strain J4) (Hepatitis C virus genotype 1b, UniProt O92972); assay: HCV polymerase assay; conditions: 50 nM HCV genotype 1b polymerase, 35° C., 60 min, BrUTP incorporation ELISA
[2] = test system: Huh-7 cells containing HCV Con1 subgenomic replicon (GS4.1 cells); assay: HCV replicon assay (NS4A ELISA); conditions: 72 hr, NS4A protein ELISA
[3] = test system: Huh-7 cells containing HCV Con1 subgenomic replicon (GS4.1 cells); assay: CC50 reported with the HCV replicon assay; conditions: Table 1

## COP1(=O)N=C(c2c(O)c3cc(F)ccc3n(CCC3CC3)c2=O)Nc2ccccc21 (stereo not drawn)
[1]
  IC50: 0.1 to 10 µM
[2]
  EC50: 0.1 to 10 µM
[3]
  CC50: > 10 µM

## CCOP1(=O)N=C(c2c(O)c3cc(F)ccc3n(CCC3CC3)c2=O)Nc2ccccc21 (stereo not drawn)
[1]
  IC50: > 10 µM
[2]
  EC50: > 10 µM
[3]
  CC50: > 10 µM

## CS(=O)(=O)Nc1ccc2c(c1)P(=O)(O)N=C(c1c(O)c3cc(F)ccc3n(CCC3CC3)c1=O)N2
[1]
  IC50: < 0.1 µM
[2]
  EC50: 0.1 to 10 µM
[3]
  CC50: > 10 µM

## COP1(=O)N=C(c2c(O)c3cc(F)ccc3n(CCC3CC3)c2=O)Nc2ccc(NS(C)(=O)=O)cc21 (stereo not drawn)
[1]
  IC50: < 0.1 µM
[2]
  EC50: 0.1 to 10 µM
[3]
  CC50: > 10 µM

## O=c1c(C2=NP(=O)(O)c3ccccc3N2)c(O)c2cc(F)ccc2n1CCC1CC1
[1]
  IC50: 0.1 to 10 µM
[2]
  EC50: 0.1 to 10 µM
[3]
  CC50: > 10 µM

## CCOP1(=O)N=C(c2c(O)c3cc(F)ccc3n(CCC3CC3)c2=O)Nc2ccc(NS(C)(=O)=O)cc21 (stereo not drawn)
[1]
  IC50: 0.1 to 10 µM
[2]
  EC50: 0.1 to 10 µM
[3]
  CC50: > 10 µM
